# According to publication PMC9017349, “Spiropyrimidinetriones: a Class of DNA Gyrase Inhibitors with Activity against Mycobacterium tuberculosis and without Cross-Resistance to Fluoroquinolones” (Antimicrobial Agents and Chemotherapy, 2022):
# Experiments:
# [1] = test system: M. tuberculosis QcrB D317T; format: cell-based, Mycobacterium tuberculosis
# [2] = test system: M. tuberculosis MmpL3, G758A/G253E; format: cell-based, Mycobacterium tuberculosis
# [3] = test system: M. tuberculosis ATCC 3583 (INH resistance); assay: microbe, parasite or virus in culture; format: cell-based; conditions: Mycobacterium tuberculosis, ATCC3583, read-out: MIC90, ATCC 3583 (INH resistance)
# [4] = test system: M. tuberculosis MmpL3, G253E; format: cell-based, Mycobacterium tuberculosis
# [5] = test system: M. tuberculosis ATCC 35838 (Rif resistance); assay: microbe, parasite or virus in culture; format: cell-based; conditions: Mycobacterium tuberculosis, ATCC35838
# [6] = test system: M. tuberculosis ATCC 35826 (CS resistance); assay: microbe, parasite or virus in culture; format: cell-based; conditions: Mycobacterium tuberculosis, ATCC35826
compound,measurement,setting,value
Cc1nnc(-c2noc3c(F)c4c(cc23)CC2(C(=O)NC(=O)NC2=O)[C@H]2[C@H](C)O[C@H](C)CN42)o1 [Compound 22],"MIC90, QcrB D317T",[1],3.9 µM
same,"MIC90, MmpL3, G758A/G253E",[2],2.0 µM
same,MIC90,[3],3.9 µM
same,"MIC90, MmpL3, G253E",[4],2.0 µM
same,MIC90,[5],2 µM
same,MIC90,[6],2 µM
